The list shows a part of the results, in another mix than the full data. The source made the active and inactive calls. Cut-off read from the data, not from the text of the source: active = fluorescence intensity above about 16000; inconclusive = no clear call, values can overlap the other calls; inactive = below that.
Assay: counter-screen for toxin protease inhibitors: compound fluorescence, primary screen, artefact control for toxin protease inhibitor project, biochemical, multiplex microsphere, HTS (AID 624483); note: test concentration not given here
Details: compound autofluorescence counterscreen, microsphere flow cytometry; hits give high values

| Compound | fluorescence intensity |
| --- | --- |
| CCCCOc1ccc(C(=O)NCC2(N3CCOCC3)CCCCC2)cc1 | inactive: 4680 |
| CCCCn1nnnc1C(c1cc2ccccc2o1)N1CCC(n2c(=O)[nH]c3ccccc32)CC1 (configuration not stated) | inactive: 5810 |
| O=P1(N(CCCl)CCCl)SCCCS1 | inactive: 4320 |
| O=C(NCC1(N2CCCCC2)CCCCC1)c1ccc(F)cc1 | inactive: 5510 |
| CCOC(=O)N1CCC(Nc2ccc(F)cc2)CC1 | inactive: 4060 |
| COc1ccc(NC2CCN(CCc3ccccc3)CC2)c(OC)c1 | inactive: 8160 |
| CCOc1ccc(C)cc1CN(CCCl)CCCl | inactive: 6490 |
| CC(C)(C)n1nnnc1C(c1ccccc1)N1CCC(n2c(=O)[nH]c3ccccc32)CC1 (configuration not stated) | inactive: 5520 |
| O=C1CCN(Cc2ccccc2)CC1 | inactive: 9600 |
| O=c1[nH]c2ccccc2n1C1CCN(C(c2cccc3ccccc23)c2nnnn2C2CCCC2)CC1 (configuration not stated) | inactive: 6120 |
| CCOC(=O)N1CCC(Nc2cccc(C)c2)CC1 | inactive: 3570 |
| COc1cc(C(=O)NCC2(N(C)C)CCCCC2)ccc1OC(F)F | inactive: 3110 |
| O=c1[nH]c2ccccc2n1C1CCN(C(c2ccccc2)c2nnnn2C2CCCCC2)CC1 (configuration not stated) | inactive: 5250 |
| CSc1ccccc1C(=O)NCC1(N2CCCCC2)CCCCC1 | inactive: 7350 |
| Cc1cccc(NC2(C#N)CCN(Cc3ccccc3)CC2)c1 | inactive: 3610 |
| O=C(NCC1(N2CCCCC2)CCCCC1)c1ccc(=O)[nH]c1 | inactive: 6030 |
| CCCCn1nnnc1C(CC)N1CCC(n2c(=O)[nH]c3ccccc32)CC1 (configuration not stated) | inactive: 5790 |
| CCCCn1nnnc1C(c1cccs1)N1CCC(n2c(=O)[nH]c3ccccc32)CC1 (configuration not stated) | inactive: 4400 |
| COc1ccc(C(=O)NCC2(N3CCCCC3)CCCCC2)cc1 | inactive: 8680 |
| CC(C)(C)OC(=O)N1CCC(N(C(=O)c2ccccc2)c2ccc(F)cc2)CC1 | inactive: 3920 |
| COc1ccc(C(=O)NCC2(N3CCCCC3)CCCCC2)c(OC)c1OC | inactive: 5370 |
| CCC(c1nnnn1C1CCCC1)N1CCC(n2c(=O)[nH]c3ccccc32)CC1 (configuration not stated) | inactive: 5080 |
| CCOC(=O)N1CCC(Nc2ccc(OC)cc2)CC1 | inactive: 2550 |
| CCCCn1nnnc1C(c1ccc(OC)cc1)N1CCC(n2c(=O)[nH]c3ccccc32)CC1 (configuration not stated) | inactive: 4450 |
| O=C(NCC1(N2CCCCC2)CCCCC1)c1ccc(Cl)s1 | inactive: 5150 |
| N#CC1(Nc2ccccc2)CCN(Cc2ccccc2)CC1 | inactive: 3810 |

| Compound | fluorescence intensity |
| --- | --- |
| O=c1[nH]c2ccccc2n1C1CCN(C(c2cc3ccccc3o2)c2nnnn2C2CCCCC2)CC1 (configuration not stated) | inactive: 5900 |
| O=C(OC1CN2CCC1CC2)C1c2ccccc2Oc2ccccc21 (configuration not stated) | inactive: 9610 |
| COc1ccc(Cl)cc1C(=O)NCC1(N2CCOCC2)CCCCC1 | inactive: 9000 |
| O=C(NCC1(N2CCOCC2)CCCCC1)c1cc2ccccc2o1 | inactive: 3930 |
| O=C(NCC1(N2CCCCC2)CCCCC1)c1ccc(Cl)nc1 | inactive: 7770 |
| O=c1[nH]c2ccccc2n1C1CCN(C(c2ccccc2OC(F)(F)F)c2nnnn2C2CCCCC2)CC1 (configuration not stated) | inactive: 5170 |
| Cc1cc(C)cc(N(C(=O)c2ccccc2)C2CCN(C(=O)OC(C)(C)C)CC2)c1 | inactive: 3730 |
| CCCCn1nnnc1C(c1ccnc2ccccc12)N1CCC(n2c(=O)[nH]c3ccccc32)CC1 (configuration not stated) | inactive: 5690 |
| COc1cc(OC)c(C(=O)NCC2(N(C)C)CCCCC2)cc1OC | inactive: 3010 |
| O=C(NCC1(N2CCOCC2)CCCCC1)c1cc(F)c(F)cc1Cl | inactive: 5480 |
| CCC(c1nnnn1C(C)(C)C)N1CCC(n2c(=O)[nH]c3ccccc32)CC1 (configuration not stated) | inactive: 5760 |
| COc1ccc(CN(CCCl)CCCl)cc1Cl | inactive: 4140 |
| CN(C)c1cccc(C(=O)NCC2(N3CCCCC3)CCCCC2)c1 | inactive: 5460 |
| CCCCn1nnnc1C(c1ccccc1OC(F)(F)F)N1CCC(n2c(=O)[nH]c3ccccc32)CC1 (configuration not stated) | inactive: 6030 |
| CC(C)c1ccc(NC2CCN(C(=O)OC(C)(C)C)CC2)cc1 | inactive: 4420 |
| Cc1ccc(C(=O)NCC2(N(C)C)CCCCC2)o1 | inactive: 3670 |
| CCCOc1ccc(C(=O)NCC2(N(C)C)CCCCC2)cc1OC | inactive: 3370 |
| COc1ccc(C(c2nnnn2C2CCCC2)N2CCC(n3c(=O)[nH]c4ccccc43)CC2)cc1 (configuration not stated) | inactive: 5860 |
| CN1CCC(Nc2cccc(F)c2)CC1 | inactive: 11000 |
| O=C(NCC1(N2CCCCC2)CCCCC1)c1cncc(Br)c1 | inactive: 4620 |
| O=C(NCC1(N2CCCCC2)CCCCC1)c1cccc([N+](=O)[O-])c1 | inactive: 3420 |
| CSc1ccc(C(=O)NCC2(N3CCOCC3)CCCCC2)cc1 | inactive: 4480 |
| CCN1CCC(Nc2ccc(Cl)cc2)CC1 | inactive: 3890 |
| O=c1[nH]c2ccccc2n1C1CCN(C(c2ccccc2OC(F)(F)F)c2nnnn2C2CCCC2)CC1 (configuration not stated) | inactive: 5910 |
| N#CC1(Nc2ccccc2)CCN(CCc2ccccc2)CC1 | inactive: 3060 |
| CC(C)(C)n1nnnc1C(c1ccccc1OC(F)(F)F)N1CCC(n2c(=O)[nH]c3ccccc32)CC1 (configuration not stated) | inactive: 4410 |

Reference: PubChem BioAssay AID624483 (NMMLSC, 2012)
